This is an account of results in ChEMBL document CHEMBL3124837, “Bicyclic 1-hydroxy-2-oxo-1,2-dihydropyridine-3-carboxamide-containing HIV-1 integrase inhibitors having high antiviral potency against cells harboring raltegravir-resistant integrase mutants” (J Med Chem, 2014).

This test addresses Human immunodeficiency virus type 1 integrase (Human immunodeficiency virus 1) (UniProt Q7ZJM1). In words: Selectivity ratio of IC50 for HIV-1 integrase-mediated 3'-processing activity to IC50 for HIV-1 integrase-mediated strand transfer activity.

In the case of `O=C(NCc1ccc(F)c(F)c1)c1cc2cccc(O)c2n(O)c1=O`, the Ratio IC50 worked out at 30.

For the compound `O=C(NCc1ccc(F)c(Cl)c1)c1cc2cccc(O)c2n(O)c1=O`, the Ratio IC50 is 30.
